Pooled drug test results. Numbers come from NIAID ChemDB, via PubChem.

Common to all: growth or infection tests; species: HIV-2; cells: CEM; endpoint: EC50

ECn is the concentration giving n% inhibition of infection, replication or growth. Blank or dashed fields: not listed here. Rows are shuffled and stem from different studies.

SMILES,strain or isolate,method,value
COC(=O)[C@H](C)OP(=O)(OC[C@@H]1C=C[C@H](n2cc(C)c(=O)[nH]c2=O)O1)Oc1ccccc1,-,-,50 µM
OCc1ccccc1B(O)O,ROD,syncytia,≥50 µM
C[C@H](CC1CNC2C1OC(N)CN2N)OCP(=O)(O)O,ROD,cytopathic effect / MTT,>100 µg/mL
CCc1c(SCc2cccc3ccccc23)cc(C)oc1=O,ROD,MTT,>10 µM
CCN(C)c1nc(N)nc2c1ncn2CCOCP(=O)(O)O,ROD,cytopathic effect / MTT,0.2 µg/mL
Cc1cc(SCc2cccc3ccccc23)cc(=O)o1,ROD,MTT,>10 µM
CCC(C)Nc1nc(N)nc2c1ncn2CCOCP(=O)(O)O,ROD,cytopathic effect / MTT,3 µg/mL
N[C@@H](CCC(=O)Nc1ccc(B(O)O)cc1)C(=O)O,ROD,syncytia,>50 µM
CCN(CC)c1ncnc2c1ncn2CCOCP(=O)(O)O,ROD,cytopathic effect / MTT,>4 µg/mL
CC(C)(C)OC(=O)Nc1cccc(B(O)O)c1,ROD,syncytia,≥250 µM
CN(C)CCCNc1nc(N)nc2c1ncn2CCOCP(=O)(O)O,ROD,cytopathic effect / MTT,4 µg/mL
O=C(CC[C@H](NC(=O)OCc1ccccc1)C(=O)O)Nc1ccc(B(O)O)cc1,ROD,syncytia,>50 µM
Cc1cc(NCCc2c[nH]c3ccccc23)c(C(=O)C(Cl)Cl)c(=O)o1,ROD,MTT,≥2 µM
O=C(CC[C@H]1C(=O)OCN1C(=O)OCc1ccccc1)Nc1ccc(B(O)O)cc1,ROD,syncytia,>50 µM
Cc1cc(N[C@H](C)c2cccc3ccccc23)cc(=O)o1,ROD,MTT,>10 µM

2 of the rows above, restated:

SMILES,strain or isolate,method,value
Cc1cc(N[C@H](C)c2cccc3ccccc23)cc(=O)o1,ROD,MTT,>10 µM
CCC(C)Nc1nc(N)nc2c1ncn2CCOCP(=O)(O)O,ROD,cytopathic effect / MTT,3 µg/mL